The list shows a part of the results. Env chains of viruses from a treatment-interruption trial, translated from the printed DNA. IC50 / IC80 of two broadly neutralizing antibodies; lower = more sensitive virus; >50 µg/ml means not reached and <0.001 µg/ml is below the lowest dose. No active / inactive call.
B1: HIV-1 Env, rebound clone, antibody arm (protein)
chain: MRVMGIRKNWQGLWKWGMMLLGMLMICNATEQLWVTVYYGVPVWKEATTTLFCASDAKSYKTEAHNIWATHACVPTDPNPQEINLINVTENFNMWKNDMVEQMHEDIISLWDQSLKPCVKLTPLCVTLQCTNITINGTDRNLTAEEREEIRNCSYNVTTELKDKKEQIYSLFYRLDITPINENQGTESRNNITKYRLINCNTSVITQACPKINFDPIPIHYCAPAGFAILKCKDKGFNGTGPCKNVSSVQCTHGIKPVVSTQLLLNGSLAEEEIVIRSENITNNAKNIIVQLVTPVNISCVRPNNNTRKSIRIGPGQSFYANNAIIGGIRQAHCNVIRSEWNNTLQKVVKKLGGLLNKTTIDFKPPSGGDPEIIMHTFNCAGEFFYCNTSGLFNSTWNTTTWNNNSTQVSNGTDSNITLQCRIKQIINMWQGVGKAMYAPPIEGMITCISNITGLILTRDGGASNDSQNETLRPAGGDMRDNWRSELYKYKVVRLEPLGLAPTKARRRVVEREKRAIGLGALFLGFLGAAGSTMGAASLTLTVQARQLLSGIVQQQNNLLRAIEAQQHLLQLTVWGIKQLQARVLAVENYLKDQQLLSIWGCSGKHICTTNVPWNTSWSNKSLSQIWDNMTWNDWEREINNYTGLIYSLIEESQIQQDKNEKELLELDKWASLWNWFKITKWLWYIKIFIMIVGGLIGLRIIFAVLSVVNRVRQGYSPLSFQTLLPASRGPDRPEGIEEEGGEQGRGRSIRLVNGFSALIWDDLRNLILFLYHRLRDLILIATRTVEILGHRGWEAIKYLWNLLLYWIQELKNSAISLYDTLAIAVAGWTDRIIEVGQRIGRAVFHIPRRIRQGAERALI
B2: HIV-1 Env, rebound clone, antibody arm (protein)
chain: MRVMGIRKNWQGLWKWGMMLLGMLMICNATEQLWVTVYYGVPVWKEATTTLFCASDAKSYKTEAHNIWATHACVPTDPNPQEINLINVTENFNMWKNDMVEQMHEDIISLWDQSLKPCVKLTPLCVTLQCTNITITINGTDRNLTAEEREEIRNCSYNVTTELKDKKEQIYSLFYRLDITPINENQGTESRNTITKYKLINCNTSVITQACPKINFDPIPIHYCAPAGFAILKCKDKGFNGTGPCKNVSSVQCTHGIKPVVSTQLLLNGSLAEEEIVIRSENITNNAKNIIVQLVTPVNISCVRPNNNTRKSIRIGPGQSFYANNAIIGGIRQAHCNVSRSEWNNTLQKVVKKLGGLLNKTTIDFKPPSGGDPEIIMHTFNCAGEFFYCNTSGLFNSTWNTTTWNNNSTQVSNGTDSNITLQCRIKQIINMWQGVGKAMYAPPIEGMITCISNITGLILTRDGARNDRQNETLRPAGGDMRDNWRSELYKYKVVRLEPLGLAPTKARRRVVEREKRAIGLGALFLGFLGAAGSTMGAASLTLTVQARQLLSGIVQQQNNLLRAIEAQQHLLQLTVWGIKQLQARVLAVENYLKDQQLLSIWGCSGKHICTTNVPWNTSWSNKSLSQIWDNMTWNDWEREINNYTGLIYSLIEESQIQQDKNEKELLELDKWASLWNWFKITKWLWYIKIFIMIVGGLIGLRIIFAVLSVVNRVRQGYSPLSFQTLLPASRGPDRPEGIEEEGGEQGRGRSIRLVNGFSALIWDDLRNLILFLYHRLRDLILIATRTVEILGHRGWEAIKYLWNLLLYWIQELKNSAISLYDTLAITVAGWTDRIIEVGQRIGRAFLHIPRRIRQGAERALI
B3: HIV-1 Env, rebound clone, antibody arm (protein)
chain: MRVMGIRKNWQGLWKWGMMLLGMLMICNATEQLWVTVYYGVPVWKEATTTLFCASDAKSYKTEAHNIWATHACVPTDPNPQEINLINVTENFNMWKNDMVEQMHEDIISLWDQSLKPCVKLTPLCVTLQCTNINITINGTDRNLTAEEREEIRNCSYNVTTELKDKKEQIYSLFYRLDITPINENQGTESRNNITKYRLINCNTSVITQACPKINFDPIPIHYCAPAGFAILKCKDKGFNGTGPCKNVSSVQCTHGIKPVVSTQLLLNGSLAEEEIVIRSENITNNAKNIIVQLVTPVNISCVRPNNNTRKSIRIGPGQSFYANNAIIGGIRQAHCNVSRSEWNNTLQKVVKKLGGLLNKTTIDFKPPSGGDPEIIMHTFNCAGEFFYCNTSGLFNSTWNTTTWNNNSTQVSNGTDSNITLQCRIKQIINMWQGVGKAMYAPPIEGMITCISNITGLILTRDGARNDNQNETLRPAGGDMRDNWRSELYKYKVVRLEPLGLAPTKARRRVVEREKRAIGLGALFLGFLGAAGSTMGAASLTLTVQARQLLSGIVQQQNNLLRAIEAQQHLLQLTVWGIKQLQARVLAVENYLKDQQLLSIWGCSGKHICTTNVPWNTSWSNKSLSQIWDNMTWNDWEREINNYTGLIYSLIEESQIQQDKNEKELLELDKWASLWNWFKITKWLWYIKIFIMIVGGLIGLRIIFAVLSVVNRVRQGYSPLSFQTLLPASRGPDRPEGIEEEGGEQGRGRSIRLVNGFSALIWDDLRNLILFLYHRLRDLILIATRTVEILGHRGWEAIKYLWNLLLYWIQELKNSAISLYDTLAITVAGWTDRIIEVGQRIGRAFLHIPRRIRQGAERALI
B4: HIV-1 Env, rebound clone, antibody arm (protein)
chain: MKVKGIRKNYQHLWRWDTMLTMLLGMIMICSAVGNLWVTVYYGVPVWKDASTTLFCASDAKGYETEVHNVWATHACVPTDPSPQELVLENVTEDFNMWENNMVEQMQEDIISLWDQSLKPCVQLTPLCVTLNCTNIASGSINSSSTTGNISNSNDMKNCSFNISSGIQDRVKKDYAYFYNLDIVQITDDNSSNSYRLINCNTSVITQACPKVSFEPIPIHYCTPAGFAILKCNDKKFNGTGTCKNVSTVQCTHGIKPVVSTQLLLNGSLAEEEIVIRSENFTNNGKNIIVQLKEAVEINCTRVGNNTRKSIHMGPGRAFYANGDIIRNIRLAHCNISKARWNNTLRQIAIKLKEQYNNSKTIKFTKSSGGDLEITTHMFNCGGEFFFCNTTQLFNSTWNNSTWNDTGNWNDTDETITLPCKIKQIINMWQRAGRAMYAPPISGNISCSSKITGLLLTRDGGNDNESQETKEVFRPGGGDMRDNWRSELYKYKVVKIEPLGVAPTKAKRRVVQREKRAVGLGALFLGFLGAAGSTMGAASITLTAQARQLMSGIVQQQNNLLKAIEAQQHLLQLTVWGIKQLQARVLAVERYLKDQQLLGIWGCSGKLICTTAVPWNTSWSNKSYDEIWEKMTWMQWEREIDNYTGIIYTLIHESQNQQDKNEQDLLALDHWASLWNWFDISNWLWYIRLFIMIVGGLVGLRIVFAVLSIVNRIRQGYSPISLQTPLPAQREPDRPGGIEEEGGERDRGRSTRLVHGSLALIWSDLSSLCIFSYHRLRDLLLIAARIVEILGRRGWELLKYWWNLLQYWSQELKNSAVSLLDAVAIAIAEGTDRVIEAAQRAWRRIRQGSEGVLL
B5: HIV-1 Env, rebound clone, antibody arm (protein)
chain: MKVKGIRKNYQHLWRWDTMLTMLLGMIMICSAVGNLWVTVYYGVPVWKDASTTLFCASDAKGYETEVHNVWATHACVPTDPSPQELVLENVTEDFNMWENNMVEQMQEDIISLWDQSLKPCVQLTPLCVTLNCTNIASGSINGSSTTGNISNSNDMKNCSFNISSGIQDRVKKDYAYFYNLDIVQITDDNSSNSYRLINCNTSVITQACPKVSFEPIPIHYCTPAGFAILKCNDKKFNGTGTCKNVSTVQCTHGIKPVVSTQLLLNGSLAEEEIVIRSENFTNNGKNIIVQLKEAVEINCTRVGNNTRKSIHMGPGRAFYANGDIIRNIRLAHCNISKARWNNTLRQIAIKLKEQYNNSNTIKFTKSSGGDLEITTHMFNCGGEFFFCNTTQLFNSTWNNSTWNDTGNWNDTDETITLPCKIKQIINMWQRAGRAMYAPPISGNISCSSKITGLLLTRDGGNDNESQETKEVFRPGGGDMRDNWRSELYKYKVVKIEPLGVAPTKAKRRVVQREKRAVGLGALFLGFLGAAGSTMGAASITLTAQARQLMSGIVQQQNNLLKAIEAQQHLLQLTVWGIKQLQARVLAVERYLKDQQLLGIWGCSGKLICTTAVPWNTSWSNKSYDEIWEKMTWMQWEREIDNYTGIIYTLIHESQNQQDKNEQDLLALDHWASLWNWFDISNWLWYIRLFIMIVGGLVGLRIVFAVLSIVNRIRQGYSPISLQTPLPAQREPDRPGGIEEEGGERDRGRSTRLVHGSLALIWSDLSSLCIFSYHRLRDLLLIAARIVEILGRRGWELLKYWWNLLQYWSQELKNSAVSLLDAVAIAIAEGTDRVIEAAQRAWRRIRQGSEGVLI
B6: HIV-1 Env, rebound clone, antibody arm (protein)
chain: MKVKGIRKNYQHLWRWDTMLTMLLGMIMICSAVGNLWVTVYYGVPVWKDASTTLFCASDAKGYETEVHNVWATHACVPTDPSPQELVLENVTEDFNMWENNMVEQMQEDIISLWDQSLKPCVQLTPLCVTLNCTNIASGSINSSNTTGNISNSNDMKNCSFNISSGIQDRVKKDYAYFYNLDIVQITDDNSSNSYRLINCNTSVITQACPKVSFEPIPIHYCTPAGFAILKCNDKKFNGTGTCKNVSTVQCTHGIKPVVSTQLLLNGSLAEEEIVIRSENFTNNGKNIIVQLKEAVEINCTRVGNNTRKSIHMGPGRAFYANGDIIRNIRLAHCNISKARWNNTLRQIAIKLKEQYNNSETIKFTKSSGGDLEITTHMFNCGGEFFFCNTTQLFNSTWNNSTWNDTGNWNDTDETITLPCKIKQIINMWQRAGRAMYAPPISGNISCSSKITGLLLTRDGGNESQETKEVFRPGGGDMKDNWRSELYKYKVVKIEPLGVAPTKAKRRVVQREKRAVGLGALFLGFLGAAGSTMGAASITLTAQARQLMSGIVQQQNNLLKAIEAQQHLLQLTVWGIKQLQARVLAVERYLKDQQLLGIWGCSGKLICTTAVPWNTSWSNKSYDEIWEKMTWMQWEREIDNYTGIIYTLIHESQNQQDKNEQDLLALDHWASLWNWFDISNWLWYIRLFIMIVGGLVGLRIVFAVLSIVNRIRQGYSPISLQTPLPAQREPDRPGGIEEEGGERDRGRSTRLVHGSLALIWSDLSSLCIFSYHRLRDLLLIAARIVEILGRRGWELLKYWWNLLQYWSQELKNSAVSLLDAVAIAIAEGTDRVIEAAQRAWRRIRQGSEGVLL

Molecular target: antibody 10-1074
Test: neutralization IC50; higher = virus less sensitive to the antibody
Description: (§1)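 Pseudovirus bearing the Env chain mixed with antibody, from 50 µg/ml in fivefold dilutions, on TZM-bl reporter cells, in duplicate.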

Binder | neutralization IC50
B1 | > 50 µg/mL
B2 | > 50 µg/mL
B3 | > 50 µg/mL
B4 | > 50 µg/mL
B5 | > 50 µg/mL
B6 | > 50 µg/mL

Molecular target: antibody 3BNC117
Test: as above
Description: as §1

Binder | neutralization IC50
B1 | 0.042 µg/mL
B2 | > 50 µg/mL
B3 | 1.56 µg/mL
B4 | > 50 µg/mL
B5 | > 50 µg/mL
B6 | 5.58 µg/mL

Molecular target: antibody 10-1074
Test: neutralization IC80; higher = virus less sensitive to the antibody
Description: as §1

Binder | neutralization IC80
B1 | > 50 µg/mL
B2 | > 50 µg/mL
B3 | > 50 µg/mL
B4 | > 50 µg/mL
B5 | > 50 µg/mL
B6 | > 50 µg/mL

Molecular target: antibody 3BNC117
Test: as above
Description: as §1

Binder | neutralization IC80
B1 | 0.294 µg/mL
B2 | > 50 µg/mL
B3 | 19.6 µg/mL
B4 | > 50 µg/mL
B5 | > 50 µg/mL
B6 | > 50 µg/mL
